# Values joined by “and” are separate entries in the source; they are usually repeats but may differ in a detail not shown here. Identical values can stand only once.
# The chains behind the UniProt entries cited, without tags or fusion partners. Residues count along the entry.
# UniProt Q4WXQ3, 112-752 limits assumed: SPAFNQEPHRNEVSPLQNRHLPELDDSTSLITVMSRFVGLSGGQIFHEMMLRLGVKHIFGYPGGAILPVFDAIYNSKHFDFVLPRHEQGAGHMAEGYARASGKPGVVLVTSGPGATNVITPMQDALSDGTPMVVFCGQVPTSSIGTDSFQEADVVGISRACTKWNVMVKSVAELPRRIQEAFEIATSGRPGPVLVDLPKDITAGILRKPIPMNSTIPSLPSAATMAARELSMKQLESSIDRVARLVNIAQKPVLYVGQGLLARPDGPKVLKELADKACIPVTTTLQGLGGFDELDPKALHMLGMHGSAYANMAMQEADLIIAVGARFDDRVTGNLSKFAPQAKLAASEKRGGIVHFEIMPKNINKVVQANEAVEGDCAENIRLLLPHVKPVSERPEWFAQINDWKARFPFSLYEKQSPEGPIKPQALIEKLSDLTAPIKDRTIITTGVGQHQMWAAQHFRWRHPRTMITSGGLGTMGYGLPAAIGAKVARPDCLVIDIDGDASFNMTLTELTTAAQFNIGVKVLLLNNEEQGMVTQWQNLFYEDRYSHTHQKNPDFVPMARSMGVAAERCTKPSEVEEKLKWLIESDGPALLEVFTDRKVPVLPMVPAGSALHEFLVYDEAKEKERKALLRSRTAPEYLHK
# Tests used:
# CaAHAS [1] = conditions: cited from earlier work
# [2] = tested on: CaAHAS (C. albicans AHAS); conditions: read-out: Ki for CaAHAS; shown for comparison; ref 13 (Garcia et al.); cited from earlier work
# A. nidulans = assay: Antifungal susceptibility assay (broth microdilution MIC); assay type: cell-based, Aspergillus nidulans; conditions: 35 °C, 48 h, no observable growth
# AfuAHAS [3] = target: T1, AfuAHAS (Aspergillus fumigatus, UniProt Q4WXQ3); assay: Accumulative inhibition assay (continuous spectrophotometric method); conditions: for kiapp, apparent first-order rate of inhibition: 2.6 µM AfuAHAS, 25 nM PS, FS, MT or 100 nM other herbicides, 30 °C, 45 min; for kiapp/k3, efficiency of accumulative inhibition: AfuAHAS
# A. flavus = assay: Antifungal susceptibility assay (broth microdilution MIC); assay type: cell-based, Aspergillus flavus; conditions: 35 °C, 48 h, no observable growth
# [4] = target: AfuAHAS (A. fumigatus AHAS catalytic subunit) (Aspergillus fumigatus, UniProt Q4WXQ3); assay: Ki determination by the colorimetric single point method in partial anoxic buffer; conditions: read-out: Ki for AfuAHAS; partial anoxic assay buffer (N2 bubbling, 2-mercaptoethanol), 30 °C, 49.37 nM enzyme
# A. niger = assay: Antifungal susceptibility assay (broth microdilution MIC); assay type: cell-based, Aspergillus niger; conditions: 35 °C, 48 h, no observable growth
# A. fumigatus = assay: as above; assay type: cell-based, Aspergillus fumigatus; conditions: A. fumigatus strain ATCC MYAA 3626, 35 °C, 48 h, no observable growth
# AfuAHAS [5] = target: T1, AfuAHAS; assay: Stoichiometry of enzyme inhibition (continuous method); conditions: 0.5 µM CE; extrapolation of the linear regression line
# CaAHAS [6] = conditions: read-out: KM for pyruvate; cited from earlier work
SMILES,k3 for CaAHAS (CaAHAS [1]) [min⁻¹],kiapp for CaAHAS (CaAHAS [1]) [min⁻¹],kiapp/k3 for CaAHAS (CaAHAS [1]),Ki [2] [nM],MIC (A. nidulans) [µg/mL],"kiapp, apparent first-order rate of inhibition (AfuAHAS [3])","kiapp/k3, efficiency of accumulative inhibition (AfuAHAS [3])",MIC (A. flavus) [µg/mL],Ki [4] [nM],MIC (A. niger) [µg/mL],MIC (A. fumigatus) [µg/mL],concentration of AfuAHAS fully inhibited (AfuAHAS [5]) [µM],Km (CaAHAS [6]) [µM]
COc1cnc(OC)n2nc(NS(=O)(=O)c3c(OCC(F)F)cccc3C(F)(F)F)nc12,0.074,15.26,206,2.4,25,18.5 min⁻¹ and 18.5 ± 2.6 min⁻¹,1426,> 100,1.8,> 100,25,,
COc1nc(C)nc(NC(=O)NS(=O)(=O)c2ccccc2Cl)n1,,,,570,> 100,NAI,,> 100,1200,> 100,> 100,,
COc1cc(OC)n2nc(NS(=O)(=O)c3c(C(F)(F)F)ccnc3OC)nc2n1 [PYS],,,,,,6.9 ± 0.4 min⁻¹,138.8,,37.8,,,,
CCOC(=O)c1ccccc1S(=O)(=O)NC(=O)Nc1nc(Cl)cc(OC)n1,,,,,> 100,0.6 ± 0.1 min⁻¹,96.7,> 100,23.4,> 100,100,1.06,
COC(=O)c1ccccc1CS(=O)(=O)NC(=O)Nc1nc(OC)cc(OC)n1,,,,,> 100,0.7 ± 0.1 min⁻¹,257.7,> 100,316,> 100,> 100,,
COC(=O)c1csc(C)c1S(=O)(=O)NC(=O)n1nc(OC)n(C)c1=O [TCM],,,,,,0.59 ± 0.03 min⁻¹,53.6,,752,,,,
CC(=O)C(=O)O,,,,,,,,,,,,,2600
COC(=O)c1ccccc1S(=O)(=O)NC(=O)Nc1nc(C)cc(C)n1,,,,,> 100,0.2 ± 0.1 min⁻¹,26.2,> 100,3100,> 100,> 100,,
CCOc1nc(F)cc2nc(S(=O)(=O)Nc3c(Cl)cccc3Cl)nn12,,,,1.7,> 100,3.2 ± 0.8 min⁻¹,530,> 100,8.7,> 100,> 100,,
COc1cc(OC)n2nc(S(=O)(=O)Nc3c(Cl)ccc(C)c3Cl)nc2n1,0.023,3.39,147.4,0.8,25,4.2 min⁻¹ and 4.2 ± 0.6 min⁻¹,1750,> 100,1.4,> 100,25,,
CCOc1nc(F)cc2nc(S(=O)(=O)Nc3c(Cl)cccc3C(=O)OC)nn12 [CSM],,,,,,8.7 ± 1.8 min⁻¹,545,,6.8,,,,
COc1cc(OC)cc(Sc2cccc(Cl)c2C(=O)O)c1,,,,,,NAI,,,31100,,,,
CC(C)C1(C)N=C(c2nc3ccccc3cc2C(=O)O)NC1=O (centres unmarked),,,,716000,> 100,,,> 100,,> 100,> 100,,
Cc1cc2nc(S(=O)(=O)Nc3c(F)cccc3F)nn2cn1,,,,,,NAI,,,373,,,,
C=C(OC)c1ccccc1S(=O)(=O)NC(=O)n1nc(OCCC)n(C)c1=O,,,,484,> 100,0.34 ± 0.09 min⁻¹,11.3,> 100,937,> 100,> 100,,
CCOc1ccccc1OS(=O)(=O)NC(=O)Nc1nc(OC)cc(OC)n1,,,,69.3,> 100,1.0 ± 0.3 min⁻¹,31.3,> 100,220,> 100,> 100,,
COc1ncc(F)c2nc(S(=O)(=O)Nc3c(F)cccc3F)nn12,,,,10.1,> 100,17.8 ± 0.6 min⁻¹,1268,> 100,14.4,> 100,> 100,,
COc1cc(OC)nc(Oc2cccc(Oc3nc(OC)cc(OC)n3)c2C(=O)O)n1,,,,2600,> 100,NAI,,> 100,55000,> 100,> 100,,
CCc1cnc(C2=NC(C)(C(C)C)C(=O)N2)c(C(=O)O)c1 (centres unmarked),,,,,> 100,,,> 100,,> 100,> 100,,
